Measurements from the supplement of paper PMC9931576.
Human monoclonal antibodies against the spike receptor-binding domain (heavy:light variable regions). IC50 against pseudoviruses bearing the spike of naturally observed variants; lower = stronger; >10 µg/ml means not reached at the top dose. No active / inactive call. The stated detection limit is 0.0005 µg/ml; values near or below 0.001 µg/ml lie at the floor of the assay.

B1: BD55-5993 (protein)
chain 1: QLRLQESGPGLAKPSETLSLTCTVSGGSISSRSYLWGWVRQPPGKRLEWIGSFQNTGSTHHNPSLKSRVTISVDTSKNQFSLKLSSVTAADTAIYYCARHGGGDFYFDYWGLGTLVTVSS
chain 2: DIQMTQSPSTLSASVGDRVTITCRASQSIHTWLAWYQQIPGKAPNLLIYKASILESGVSLRFSGSGSGTEFTLTISSLQPDDFATYYCQQYSTFYPTFGQGTKV
B2: BD-507 (protein)
chain 1: EVQLVESGGGLIQPGGSLRLSCAASGLTVSSNYMNWVRQAPGKGLEWVSVIYSGGSTYYADSVKGRFTISRDNSKNMVYLQMNSLRAEDTAVYYCARDLVVYGMDVWGQGTTVIVSS
chain 2: DIQLTQSPSSLSASVGDRVTITCRASQGISSYLAWYQQKPGKAPKLLIYAASTLQSGVPSRFSGSGSGTDFTLTISSLQPEDVATYYCQQLNSNPPITFGPGTKVDIK
B3: BD55-5974 (protein)
chain 1: EVQLVQSGAEVKKPGESLKISCKGSGYSFTSYWIGWVRQMPGKGLEWMGIVYPGDSDIKYSPPFQGQVTISADQSISTAYLQWSSLKASDTAIYYCARRHYFASGSSRGDFDYWGQGTLVTVSS
chain 2: QSVLTQPPSASGTPGQRVTISCSGSTSNIGSDSVHWYQQFPGTAPKLLIYGDDQRPSGVPDRFTGSKSGTSASLAISGLQSEDEADYYCAAWDDSLNGWVFGGGTKLTVL
B4: BD55-6033 (protein)
chain 1: QVQLVQSAAEVKKPGSSVRVSCKASGGTFSAYTINWVRQAPGQGLEWMGGIIPIFGTPNYAQKFQGRVTITADESTSTAYMELSSLRSEDTAVYYCARGDYGISVADSYFDYWGQGTLVTVSS
chain 2: EIVMTQSPATLSVSPGERATLSCRPSQSISSNLAWYQQKPGQAPRLLIYGASTRATGIPARFSGSASGTEFTLTISSLQSEDFAVYYCQQYNNWPPITFGQGTRLEIK
B5: BD55-1144 (protein)
chain 1: QLQLQESGPGLVKPSETLSLTCAVSGGSISSSQYYWVWIRQPPGKGLEWIGSIFYTGTTYYNASLNSRVTMSVDTSNNQFSLKLNSVTAADTAVYYCARQCPFFYDSSDYSTGSFDLWGQGTMVTVSS
chain 2: QSALTQPASVSGSPGQSITISCTGTSSDVGSYNLVSWYQHHPAKAPKLLIYEVTKRPSGVSFRFSGSKSGNTASLTISGLQAEDEAEYYCCSFAGRSTFFGTGTKVTVL
B6: BD55-6018 (protein)
chain 1: QEELVESGGGVVQPGRSLRLSCAASGFTFDSYGMHWVRQAPGKGLEWVAVIWYNENTKYYADSVKGRFTVSRDNSKNTLNLQMDSLRAEDTAVYYCTRIVIGHAFDVWGQGTMVTVSS
chain 2: DIQLTQSPSSLSASVGDRVTITCRASETIGNKLNWYQQRPGKAPKLLIYAASHLQSGVPSRFSARGSGTDFTLSISGLQPEDFATYYCQQSFSSPLTFTFGPGTKVDIK
B7: BD55-6025 (protein)
chain 1: QVQLVQSGAEVKKPGSSVKVSCKTSGGTFSSNAISWVRQAPGQGLEWLGRIIPIFGTSTYAQKFQGRVTMTADESTGTAYMELSSLTSEDTAVYYCGRAGVLGGAGSYYIVDYWGQGSLVTVSS
chain 2: NFMLTQPHSVSESPGKTVTISCARSSGSIDSDYVQWYQQRPGSAPTTVIYEHNQTPSGVPDRFSGSIDSSSNSASLTISGLKTEDEADYYCQSYDSASQAWVFGGGTKVTVL
B8: BD55-6029 (protein)
chain 1: EVQLLQSGGGLVQPGGSLRLSCAASGFTFSSYAMSWLRQAPGKGLEWVSSITKSGDGTFYADSVKGRFTMSRDNSKSTLYLQINSLTAEDSAVYYCAKDQGSAWYDVFDMWGQGTMVTVSS
chain 2: DIQMTQSPSSLSASVGDRVTITCRASQYIRNYLNWYQQKPGKAPKLLIYAASSLQDGVPSRFSGSGSGTDFTLTINSLQPEDFATYYCQQSYNTPQLTFGGGTKVEIK
B9: BD55-6020 (protein)
chain 1: QITLKESGQTLVKPTQTLTLTCTFSGFSLNTRGVSVGWIRQPPGEAPEWLALIYWDDDTRYPPSLMSRVAITKDTSKNQVVLTMTNMAPVDTATYYCAHGVDDYDSNGYYAYYFDYWGQGTRVTVSS
chain 2: QSALTQPASVSGSPGQSITISCSVTSSDIDLYTYVSWFQHHPGKAPKLIIYNFTKRPSGVSPRFSGSKSGNTASLTLSGLQAEDEAYYYCSSYTGSSTFYVFGPGTKVTVL
B10: BD55-1141 (protein)
chain 1: QLQLQESGPGLVKPSEILSLTCTVSGGSVTSSSFYWGWIRQPPGKGLEWVGSVYYTGITYYSTSLKSRLTLAVDTSKNQFSLNLTSVTAADTAVYYCARLSRLVGPDLFDLWGQGTMVTVSS
chain 2: QSALTQPASVSGSRGQSITISCTGTSGDVGSNDLVSWYQQHPGKAPKLMIYEVTKRPSGVSNRFSGSKSGNTASLTISGLQAEDEADYYCCSYAGIPKRVFGGGTKLTVL
B11: BD55-6030 (protein)
chain 1: QVQLVESGGGVVQPGRSLRLSCAVSGFIFRSYAMHWVRQAPGKGLEWVATISYDGSNKYYADSMKGRFTISRDNSKNTLYLQMNSLRAEDTAVYYCAKDFVSSIGRGPYHYNFYALDVWGQGTAVTVSS
chain 2: NFMLTQPHSVSESPGKTVTISCTRSSGSIASNYVQWYQQRPGSSPTTLIFEDNQRPSGVSDRFSGSIDSSSNSASLTISGLQTDDEADYYCQSYDSDNLVFGGGTKLTVL
B12: BD55-6016 (protein)
chain 1: EVQLVESGGGLIQPGGSLRLSCAVSGFSMNSNYMTWVRQAAGKGLEWISVIYNGGGTYYADSVKGRFTISRDIPNNTLYLQMNSLRAEDTAVYYCARGKNYGDDWFDPWGQGTQVTVSS
chain 2: EIVLTQSPATLSLSPGDRATLSCRASQSDSRYLAWYQQKPGQAPRLLIYDVSNRATAIPARFSGSGSGTEFTLTISSLEPEDFAVYYCQQRNRWPPTFTFGQGTKLEIK

The binders below were run against SARS-CoV-2 Omicron BA.1 spike pseudovirus (assay: pseudovirus neutralization IC50; higher = weaker neutralization).
Procedure: (§1)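 Single-round VSV luciferase pseudovirus mixed with antibody dilutions for 1 h and put on Huh-7 cells for about a day; IC50 from the dose curve.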

| Binder | pseudovirus neutralization IC50 [µg/mL] |
| --- | --- |
| B1 | > 10 |
| B2 | > 10 |
| B3 | > 10 |
| B4 | > 10 |
| B5 | > 10 |
| B6 | > 10 |
| B7 | > 10 |
| B8 | > 10 |
| B9 | > 10 |
| B10 | > 10 |
| B11 | > 10 |
| B12 | > 10 |

These binders were tested against SARS-CoV-2 Omicron BA.2 spike pseudovirus in the same assay as above.
Procedure: as §1

| Binder | pseudovirus neutralization IC50 [µg/mL] |
| --- | --- |
| B1 | > 10 |
| B2 | > 10 |
| B3 | > 10 |
| B4 | > 10 |
| B5 | > 10 |
| B6 | > 10 |
| B7 | > 10 |
| B8 | > 10 |
| B9 | > 10 |
| B10 | > 10 |
| B11 | > 10 |
| B12 | > 10 |

The binders below were run against SARS-CoV-2 Omicron BA.2.75 spike pseudovirus in the same assay as above.
Procedure: as §1

| Binder | pseudovirus neutralization IC50 [µg/mL] |
| --- | --- |
| B1 | > 10 |
| B2 | > 10 |
| B3 | > 10 |
| B4 | > 10 |
| B5 | > 10 |
| B6 | > 10 |
| B7 | > 10 |
| B8 | > 10 |
| B9 | > 10 |
| B10 | > 10 |
| B11 | > 10 |
| B12 | > 10 |

What follows are binders tested against SARS-CoV-2 Omicron BA.5 spike pseudovirus in the same assay as above.
Procedure: as §1

| Binder | pseudovirus neutralization IC50 [µg/mL] |
| --- | --- |
| B1 | > 10 |
| B2 | > 10 |
| B3 | > 10 |
| B4 | > 10 |
| B5 | > 10 |
| B6 | > 10 |
| B7 | > 10 |
| B8 | > 10 |
| B9 | > 10 |
| B10 | > 10 |
| B11 | > 10 |
| B12 | > 10 |

The binders below were run against SARS-CoV-2 Omicron BQ.1.1 spike pseudovirus in the same assay as above.
Procedure: as §1

| Binder | pseudovirus neutralization IC50 [µg/mL] |
| --- | --- |
| B1 | > 10 |
| B2 | > 10 |
| B3 | > 10 |
| B4 | > 10 |
| B5 | > 10 |
| B6 | > 10 |
| B7 | > 10 |
| B8 | > 10 |
| B9 | > 10 |
| B10 | > 10 |
| B11 | > 10 |
| B12 | > 10 |

What follows are binders tested against SARS-CoV-2 Omicron XBB spike pseudovirus in the same assay as above.
Procedure: as §1

| Binder | pseudovirus neutralization IC50 [µg/mL] |
| --- | --- |
| B1 | > 10 |
| B2 | > 10 |
| B3 | > 10 |
| B4 | > 10 |
| B5 | > 10 |
| B6 | > 10 |
| B7 | > 10 |
| B8 | > 10 |
| B9 | > 10 |
| B10 | > 10 |
| B11 | > 10 |
| B12 | > 10 |

Each binder was assayed against SARS-CoV-2 early D614G spike pseudovirus in the same assay as above.
Procedure: as §1

| Binder | pseudovirus neutralization IC50 [µg/mL] |
| --- | --- |
| B1 | > 10 |
| B2 | 0.0565 |
| B3 | > 10 |
| B4 | 1.17 |
| B5 | > 10 |
| B6 | > 10 |
| B7 | 0.108 |
| B8 | > 10 |
| B9 | > 10 |
| B10 | > 10 |
| B11 | 0.625 |
| B12 | > 10 |
